Assay results as given in patent US11926642B2, “Compounds and methods for the treatment of COVID-19” (priority 2020, dated 2024).

Assay: 24 hour continuous IV infusion GLP study in rats

## COc1cccc2[nH]c(C(=O)N[C@@H](CC(C)C)C(=O)N[C@@H](C[C@@H]3CCNC3=O)C(=O)COP(=O)(O)O)cc12 [Example 49]
  neurological safety pharmacology (functional observation battery): no effects on neurological safety pharmacology parameters
